The values below are quoted from earlier work in article PMC12384205.

As a reminder, the Kd is a measure of binding affinity in units of concentration.

Series [1] deals with integrin αvβ3 (Homo sapiens) (UniProt P06756). The following applies: cited from earlier work.
Series [2] has as its target integrin αvβ6 (Homo sapiens) (UniProt P06756). As to conditions: cited from earlier work.

For “SARS-CoV-2 S1-RBD RBD (from UniProt P0DTC2)”, the Kd was > 0.5 µM in series [1] and 0.23 µM in series [2].
